This note sets out measurements from paper PMC12678819, “Targeting bacterial kinases as a strategy to counteract antibiotic resistance” (2025).

Amino acid sequences for entries named in this document (tags omitted). Residues count along the entry.
UniProt O68183, 1-301: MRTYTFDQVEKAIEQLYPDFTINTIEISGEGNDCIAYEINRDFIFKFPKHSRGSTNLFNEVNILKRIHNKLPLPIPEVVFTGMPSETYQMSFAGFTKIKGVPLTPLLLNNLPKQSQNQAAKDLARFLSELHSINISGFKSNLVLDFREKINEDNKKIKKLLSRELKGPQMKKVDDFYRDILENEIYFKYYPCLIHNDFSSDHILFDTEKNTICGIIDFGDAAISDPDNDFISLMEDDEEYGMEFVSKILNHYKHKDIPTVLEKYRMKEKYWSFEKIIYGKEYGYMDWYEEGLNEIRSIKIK

One may read the pKi as the Ki on a negative log10 scale, so that one unit is a factor of ten. Read a low pKi as a high Ki.

For data set [1], the target named is T1, APH(2”)-IVa (Enterococcus casseliflavus, UniProt O68183). The data set can be described thus: Thermal shift assay. The settings on record: 500 µM compound.
A further data set has as its system E. coli ATCC 25922. The data set can be described thus: Cellular uptake assay. The settings on record: single replicate.
In the next data set the test system is E. coli ΔtolC strain. The data set can be described thus: Cellular uptake assay. The settings on record: single replicate.
A further data set concerns K. pneumoniae ATCC 43816. The data set is described as follows: Cellular uptake assay. The settings on record: single replicate.
The next data set has as its system P. aeruginosa ATCC 27853. The data set can be described thus: Cellular uptake assay. Conditions: single replicate.
The test system of data set [2] is Pseudomonas aeruginosa C0214. The data set can be described thus: Bacterial growth / checkerboard assay with kanamycin A.
For data set [3], the target named is T1, APH(2”)-IVa. The data set can be described thus: Pyruvate Kinase-Lactate Dehydrogenase-coupled enzyme assay. The settings on record: for Inhibition (%) at 10 µM: 10 µM compound; for pKi: 25°C, competitive vs MgATP, 100 µM kanamycin A.
The subject of data set [4] is S. aureus ATCC 33591 (MRSA). The data set is described as follows: Cellular uptake assay. The settings on record: single replicate.
The next data set relates to E. faecalis ATCC 29212. The data set is described as follows: Cellular uptake assay. Conditions: single replicate.

pKi: −log10 of the molar value. Values joined by “and” are separate entries in the source; they are usually repeats but may differ in a detail not shown here. Identical values can stand only once.

Consider `OCCCn1cc(-c2c(Cl)cnc3[nH]ccc23)nn1`, for which the “ΔTm (°C) at 500 µM” value on APH(2”)-IVa [1] turned out to be 1.20 °C. In addition, the “concentration in cell lysate” value was 0.711 ng/mL and 1.14 ng/mL and 1.54 ng/mL with E. coli ATCC 25922; 0.581 ng/mL and 1.48 ng/mL with E. coli ΔtolC strain; 9.73 ng/mL with K. pneumoniae ATCC 43816; 1.4 ng/mL and 1.24 ng/mL in the data set with P. aeruginosa ATCC 27853. For the same compound, the concentration in cytoplasm in the data set on E. coli ATCC 25922 is 0.701 ng/mL and 1.65 ng/mL and 0.652 ng/mL. Also, the concentration in periplasm in the data set on E. coli ΔtolC strain was 3.09 ng/mL and 1.78 ng/mL and 1.06 ng/mL. Also, the OD600nm is 0.3176 in [2] (inhibitor 125 µM, KanaA 0 µg.mL-1); 0.2851 in [2] (inhibitor 125 µM, KanaA 8 µg.mL-1); 0.2911 in data set [2] (inhibitor 125 µM, KanaA 16 µg.mL-1); 0.2169 in data set [2] (inhibitor 125 µM, KanaA 32 µg.mL-1); 0.0129 in [2] (inhibitor 125 µM, KanaA 64 µg.mL-1); -0.00055 in [2] (inhibitor 125 µM, KanaA 128 µg.mL-1). In addition, the OD600nm is listed as -0.0006 in data set [2] (inhibitor 125 µM, KanaA 256 µg.mL-1); -0.00045 in data set [2] (inhibitor 125 µM, KanaA 512 µg.mL-1); -0.00035 in [2] (inhibitor 125 µM, KanaA 1024 µg.mL-1); 0.00075 in [2] (inhibitor 125 µM, KanaA 2048 µg.mL-1); 0.0067 in data set [2] (inhibitor 125 µM, KanaA 4096 µg.mL-1); 0.3249 in data set [2] (inhibitor 250 µM, KanaA 0 µg.mL-1). Also, the OD600nm in [2] (inhibitor 250 µM, KanaA 8 µg.mL-1) is 0.2882; in [2] (inhibitor 250 µM, KanaA 16 µg.mL-1), 0.2992; in [2] (inhibitor 250 µM, KanaA 32 µg.mL-1), 0.2261; in data set [2] (inhibitor 250 µM, KanaA 64 µg.mL-1) it was 0.0142; in data set [2] (inhibitor 250 µM, KanaA 128 µg.mL-1) it was -0.0005; in data set [2] (inhibitor 250 µM, KanaA 256 µg.mL-1) it was -0.0014. Moreover, the OD600nm in [2] (inhibitor 250 µM, KanaA 512 µg.mL-1) was -0.0009; in data set [2] (inhibitor 250 µM, KanaA 1024 µg.mL-1) it was -0.0007; in data set [2] (inhibitor 250 µM, KanaA 2048 µg.mL-1), -0.0002; in data set [2] (inhibitor 250 µM, KanaA 4096 µg.mL-1) it was 0.0043; in data set [2] (inhibitor 500 µM, KanaA 0 µg.mL-1) it was 0.3268; in data set [2] (inhibitor 500 µM, KanaA 8 µg.mL-1) it was 0.2940. The OD600nm in data set [2] (inhibitor 500 µM, KanaA 16 µg.mL-1) is 0.2905; in [2] (inhibitor 500 µM, KanaA 32 µg.mL-1), 0.2029; in [2] (inhibitor 500 µM, KanaA 64 µg.mL-1), -0.00095; in data set [2] (inhibitor 500 µM, KanaA 128 µg.mL-1), -0.0011; in data set [2] (inhibitor 500 µM, KanaA 256 µg.mL-1), -0.0012; in [2] (inhibitor 500 µM, KanaA 512 µg.mL-1) it was -0.0016. The OD600nm in data set [2] (inhibitor 500 µM, KanaA 1024 µg.mL-1) is on record as -0.0014; in data set [2] (inhibitor 500 µM, KanaA 2048 µg.mL-1) it was -0.00065; in data set [2] (inhibitor 500 µM, KanaA 4096 µg.mL-1), 0.0022. Further, the “Inhibition (%) at 10 µM” value at APH(2”)-IVa [3] stood at 88%. Besides, at APH(2”)-IVa [3], the negative-log Ki (pKi) is 6.34.

Take `Clc1cnc2[nH]ccc2c1-c1c[nH]nn1`: the “ΔTm (°C) at 500 µM” value at APH(2”)-IVa [1] worked out at 1.31 °C. In addition, in the data set on E. coli ATCC 25922, the concentration in cytoplasm is 0.193 ng/mL and 0.131 ng/mL; the concentration in membrane was 0.995 ng/mL and 2 ng/mL and 1.05 ng/mL. Moreover, in the data set with E. coli ΔtolC strain, the “concentration in cell lysate” value was 0.425 ng/mL and 0.2 ng/mL and 0.179 ng/mL; the concentration in membrane was 2.79 ng/mL and 1.94 ng/mL and 1.57 ng/mL; the concentration in periplasm was 0.447 ng/mL and 0.264 ng/mL and 0.604 ng/mL. Further, in the data set with K. pneumoniae ATCC 43816, the “concentration in cell lysate” value was found to be 0.588 ng/mL. In data set [4], the concentration in cytoplasm is 0.119 ng/mL; the concentration in membrane is 0.696 ng/mL and 0.308 ng/mL; the concentration in periplasm was 0.313 ng/mL and 0.135 ng/mL. Moreover, at APH(2”)-IVa [3], the “Inhibition (%) at 10 µM” value amounted to 83% and the pKi was 5.89.

Consider `C[C@@H](CO)Cn1cc(-c2c(Cl)cnc3[nH]ccc23)nn1`, for which the “ΔTm (°C) at 500 µM” value at APH(2”)-IVa [1] was 1.47 °C. For the same compound, in the data set on E. faecalis ATCC 29212, the “concentration in cell lysate” value is 1.12 ng/mL and 1.33 ng/mL; the concentration in cytoplasm was 1.37 ng/mL and 1.15 ng/mL and 2.66 ng/mL; the concentration in membrane is 1.16 ng/mL and 1.3 ng/mL and 1.19 ng/mL; the concentration in periplasm was 1.91 ng/mL and 1.1 ng/mL and 1.19 ng/mL. In addition, in data set [4], the concentration in cytoplasm is 0.478 ng/mL and 0.267 ng/mL and 0.616 ng/mL; the concentration in membrane is 0.219 ng/mL and 0.248 ng/mL and 0.338 ng/mL. On APH(2”)-IVa [3], the “Inhibition (%) at 10 µM” value is reported as 91% and the pKi was 6.44.
